Assay results from patent publication US20210244790A1 (priority 2018, published 2021).
Numbered stars: 1 amine (or outer) side, 2 acyl side, 3 side chain; on linkers, the order of the positions; unused ones are H or OH. Bridge positions count the residues as written; N and C are the ends. Square brackets hold non-standard residues; d marks the D form. Peptide text beside a SMILES is read from it. ξ: configuration not given here. ξAsn(3ξ-OH) = NC(=O)C(O)C(N)C(=O)O; X1 = CC(C)CCCC(CC(=O)[*:1])O[*:2]; NMeF = CN[CH](Cc1ccccc1)C(=O)O; NMeV = CN[CH](C(=O)O)C(C)C; Orn = NCCC[CH](N)C(=O)O

Tested on: MRSA
Test: Number of cells after 24 hour incubation in 5% FBS-added CAMHB
Conditions: initial 6.1 × 10^5, 5% FBS CAMHB

SMILES	Number of cells After 24 hours (boric acid 1250 μg/mL alone)	Number of cells After 24 hours (boric acid 2500 μg/mL alone)	Number of cells After 24 hours (lotilibcin 0.25 μg/mL alone)	Number of cells After 24 hours (lotilibcin 2.5 μg/mL alone)
OB(O)O [Boric acid]	1.5 × 10^7 CFU/mL	1.9 × 10^6 CFU/mL		
CC(C)CCCC1CC(=O)NC(CO)C(=O)NC(C(O)C(N)=O)C(=O)NC(CO)C(=O)NCC(=O)N(C)C(Cc2ccccc2)C(=O)NC(CC(C)C)C(=O)NC(CCCN)C(=O)NC(CCC(=O)O)C(=O)NC(CC(N)=O)C(=O)NC(Cc2c[nH]c3ccccc23)C(=O)NC(CCCN)C(=O)N(C)C(C(C)C)C(=O)O1 (stereo not shown) [Lotilibcin, lotilibcin] (S[ξAsn(3ξ-OH)]SG[NMeF]L[Orn]ENW[Orn][NMeV]; linker N-C via X1; configuration not given here)			2.3 × 10^5 CFU/mL	7.6 × 10^2 CFU/mL
